Earlier results in publication PMC11053489 (Viruses, 2024).

Test system: 3CLpro mutations E166V and S144E
Details: cited from earlier work

CC(C)(C)[C@H](NC(=O)C(F)(F)F)C(=O)N1C[C@H]2[C@@H]([C@H]1C(=O)N[C@H](C#N)C[C@@H]1CCNC1=O)C2(C)C [Nirmatrelvir]
reduction of inhibitory activity by 3CLpro mutations: > 100 fold
